Anti-infective test results gathered from many reports (values: NIAID ChemDB through PubChem).

Common to all: whole-cell or culture tests; organism: Mycobacterium tuberculosis

An empty or dashed field is not shown. Inhibition is in % at the dose shown (toxicity tests: loss of growth or viability). MIC50, MIC90 and the like: level of inhibition, or share of isolates inhibited. ECn is the concentration giving n% inhibition of infection, replication or growth. Lines come from different laboratories, so protocols vary. MIC bound: limit read from a one-dose screen.

smiles	method	strain or isolate	changes	tested at	read-out	value
COc1ccc(C2CC(=O)c3c(OC)cc(OC)cc3O2)cc1		H37Rv			EC50	>12.5 µg/mL
CC(=O)Nc1n[n+]([O-])c2cc(C)ccc2[n+]1[O-]	resazurin	H37Rv			MIC	3.13 µg/mL
CCCCCCCCCN1C(=O)C=C(C)C1=O		Clinical isolate (isoniazid-resistant)			MIC	≤20 µg/mL
COc1ccc2nc(Cl)c(C3C(C#N)=C(N)N(Nc4ccc(C)cc4)C4=C3C(=O)CC(C)(C)C4)cc2c1	agar	H37Rv			MIC	50 µg/mL
O=C(CSc1nnc(-c2ccncc2)n1-c1ccccc1)c1ccccc1		H37Rv		6.25 µg/mL	inhibition	12%
Cn1cnnc1SCc1ccc(C(N)=S)cc1		My 331/88			MIC	500 µM
CC(=O)N[C@@H](C=O)[C@@H](O)[C@H](O)[C@H](O)C(=O)O	BACTEC	H37Rv			MIC bound	>12.5 µg/mL
Fc1ccc(/C(Cn2ccnc2)=N/OC/C=C/c2ccccc2)cc1		CIP103471			MIC	8 µg/mL
O=C(OCc1ccccc1)N1N=NC2C1C1CC(OCc3ccccc3)(OCc3ccccc3)C2O1	BACTEC	H37Rv			MIC bound	>12.5 µg/mL
CCCCCCCCCN1C(=O)CC(SCCNC(=O)c2ccc(CCCC)cc2)C1=O		Clinical isolate (isoniazid-resistant)			MIC	≤20 µg/mL
Clc1ccc(/C(Cn2ccnc2)=N/OC/C=C/c2ccccc2)cc1		CIP103471			MIC	8 µg/mL
COC(=O)Cc1c(CC(=O)OC)[n+](=O)c2ccccc2n1[O-]		H37Rv			MIC	250 µg/mL
CN1C2CCC1[C@H](COC(=O)c1ccccc1)[C@@H](OC(=O)c1ccccc1)C2.Cl	BACTEC	H37Rv			MIC	128 µg/mL
C=CCn1c(SCC(=O)c2ccccc2)nnc1-c1ccncc1		H37Rv			MIC	>6.25 µg/mL
O=[N+]([O-])c1cc(C(F)(F)F)cc2nc(C3=NCCO3)sc12	resazurin / absorbance	H37Rv			MIC80	2 µg/mL
CCCCNC(=O)c1cc(-c2ccccc2)sc1N	resazurin	H37Rv			MIC	>300 µM
O=C(CSC1CCc2ccccc21)N/N=C/c1ccccc1O	BACTEC	H37Rv		12.5 µg/mL	inhibition	29%
O=C(CSc1nnc(-c2ccncc2)n1-c1ccc(Cl)cc1)c1ccccc1		H37Rv			MIC	>6.25 µg/mL
O=C(Nc1ccc2oc3ccc(Cl)cc3c(=O)c2c1)c1ccc(Cl)cc1Cl	BACTEC	H37Rv			MIC bound	>12.5 µg/mL
Fc1ccc(/C(Cn2ccnc2)=N\OCc2ccccc2)cc1		CIP103471			MIC	4 µg/mL
O=C1C[C@@H](c2ccc(O)cc2)Oc2cc(O)c(-c3c(O)cc4c(c3O)C(=O)C[C@@H](c3ccc(O)cc3)O4)c(O)c21					EC50	>12.5 µg/mL
COC1=C(Br)[C@@H](O)[C@]2(C=C1Br)CC(C(=O)NCCCCNC(=O)C1=NO[C@]3(C=C(Br)C(OC)=C(Br)[C@@H]3O)C1)=NO2		H37Rv			MIC	12.5 µg/mL
CCC(CO)NCCN[C@@H](CC)CO		H37Rv			MIC	300 µM
COc1ccc(C2Oc3cc(F)ccc3C(=O)C2O)cc1					EC50	12.5 µg/mL
COc1ccc(NN2C(N)=C(C#N)C(c3cc4ccccc4nc3Cl)C3=C2CC(C)(C)CC3=O)cc1	agar	H37Rv			MIC	44 µg/mL
C=C1C(=O)O[C@@H]2C(O)[C@@H](C)[C@@H]3C=CC(=O)[C@@]3(C)[C@H](OC(=O)C=C(C)C)[C@H]12	BACTEC	H37Rv			MIC bound	>12.5 µg/mL
COc1c(N2CC[C@@H](C(C)(C)N)C2)c(F)cc2c(=O)c3c(=O)[nH]sc3n(C3CC3)c12		Pan-susceptible clinical isolate 1			MIC	0.06 µg/mL
Nc1sc2c(c1C(=O)NCc1ccccc1)CCCC2	resazurin	H37Rv			MIC	>300 µM
COc1c(OC)[n+](=O)c2ccccc2n1[O-]		H37Rv			MIC	31.2 µg/mL
O=CNNC(=O)c1cnccn1	BACTEC	H37Rv		12.5 µg/mL	inhibition	9%
O=C(/C=C/c1ccc(I)cc1)c1ccccc1O		H37Rv			EC50	>12.5 µg/mL
O=C(CSc1nnc(-c2ccncc2)n1-c1ccc(Br)cc1)c1ccccc1		H37Rv		6.25 µg/mL	inhibition	16%
Cc1c(N2CCC(O)(c3ccc(Cl)cc3)CC2)c([N+](=O)[O-])cc2c(=O)c(C(=O)O)cn(C3CC3)c12		H37Rv			MIC	6.29 µM
O=C(O)c1cc2c([nH]1)-c1cccnc1C(=O)C2=O	BACTEC	H37Rv		12.5 µg/mL	inhibition	-23%
Cc1c(N2CCN(C(=O)c3ccco3)CC2)c([N+](=O)[O-])cc2c(=O)c(C(=O)O)cn(-c3ccc(F)cc3F)c12		H37Rv			MIC	40.43 µM
CO[C@H]1/C=C/O[C@@]2(C)Oc3c(C)c(O)c4c(O)c(c(/C=N/N5CCN(C)CC5)c(O)c4c3C2=O)NC(=O)/C(C)=C\C=C\[C@H](C)[C@H](O)[C@@H](C)[C@@H](O)[C@@H](C)[C@H](OC(C)=O)[C@@H]1C	resazurin	H37Rv	INH resistant Y155* truncation		MIC	0.012 µM
Cc1c(N2CCCC(C(=O)N(C)C)C2)c([N+](=O)[O-])cc2c(=O)c(C(=O)O)cn(C(C)(C)C)c12		H37Rv			MIC	25.69 µM
CCCCCCCCP(=O)(O)OP(=O)(O)OC[C@H]1O[C@@H](n2ccc(N)nc2=O)[C@H](O)[C@@H]1O	resazurin	H37Rv		6.25 µg/mL	inhibition	-30%
NCCCN1c2ccccc2Sc2ccccc21	resazurin	MDR-843			MIC	2 µg/mL
CC(=O)Nc1cccc(Nc2nccc(Nc3ccc(C(=O)O)cc3CN(C)C3CCCCC3)n2)c1	resazurin	H37Rv			MIC	16 µg/mL
NNC(=O)c1ccncc1	resazurin	H37Rv	Rifampicin-resistant S522L		MIC	0.18 µM
O=C(ON=C1c2ccccc2C(Br)C(Br)c2ccccc21)c1ccccc1	BACTEC	H37Rv		12.5 µg/mL	inhibition	12%
NC(=S)c1ccc(CSc2ncn[nH]2)cc1		My 331/88			MIC	125 µM
Fc1ccc(/C(Cn2ccnc2)=N/OCc2cccc3ccccc23)cc1		CIP103471			MIC	8 µg/mL
NNC(=O)c1ccncc1	resazurin	MDR-6233			MIC	4 µg/mL
CCC(CO)NCCNC1CCCCC1		H37Rv			MIC	300 µM
Fc1ccc(/C(Cn2ccnc2)=N\OCc2cccc3ccccc23)cc1		CIP103471			MIC	8 µg/mL
CC[C@@H](C(=O)[C@@H](C)[C@@H](O)[C@H](C)CCc1ccc(C)c(O)c1C(=O)O)[C@H]1O[C@](CC)([C@H]2CC[C@](O)(CC)[C@H](C)O2)C[C@@H]1C	BACTEC	H37Rv			MIC	≥12.5 µg/mL
C=C[C@](C)(Cl)[C@@H](Br)/C=C/[C@](C)(Cl)CBr		ATCC 35838 (rifampicin-resistant)			MIC	6.25 µg/mL
Cc1c(C)[n+](=O)c2ccc(F)cc2n1[O-]		H37Rv			MIC	125 µg/mL
Cc1c(N2CCN(Cc3ccc4c(c3)OCO4)CC2)c([N+](=O)[O-])cc2c(=O)c(C(=O)O)cn(-c3ccc(F)cc3F)c12		H37Rv			MIC	21.61 µM
Cc1c(C(F)(F)F)cc2nc(C3=N[C@H](C(=O)N4CCCC4)CO3)sc2c1[N+](=O)[O-]	resazurin / absorbance	H37Rv	BTZ-resistant (C387G)		MIC80	>64 µg/mL
CC(SC(C)C(=O)N/N=C/c1c[nH]c2ccccc12)C(=O)N/N=C/c1c[nH]c2ccccc12	BACTEC	H37Rv		12.5 µg/mL	inhibition	-18%
CC(C)OC(=O)c1cc[n+](CC(=O)c2ccc(F)cc2)cc1.[Br-]	resazurin		MDR		MIC	1 µg/mL
COc1ccc(C2CC(=O)c3ccc(OC)cc3O2)cc1		H37Rv		12.5 µg/mL	inhibition	0%
c1ccc([C@H]2C[C@@H]2NCCNC23CC4CC(CC(C4)C2)C3)cc1		H37Rv			MIC	5 µM
C[C@H]1[C@H](C)Oc2c3c(c4c(-c5ccccc5)cc(=O)oc4c2[C@H]1O)OC(C)(C)C=C3	BACTEC	H37Rv		12.5 µg/mL	inhibition	99%
CC1(C)[C@H]2CC[C@@H](CNCCNCC(c3ccccc3)c3ccccc3)[C@@H]1C2		H37Rv			MIC	1 µM
NNC(=O)CN1c2ccccc2Sc2ccc(Cl)cc21	BACTEC	H37Rv		12.5 µg/mL	inhibition	-14%
CC1(C)CC(=O)C2=C(C1)N(Nc1ccc(Br)cc1)C(N)=C(C#N)C2c1cc2ccccc2nc1Cl	agar	H37Rv			MIC	33 µg/mL
COCCN1CCN(C(=O)c2nc3cc(C(F)(F)F)cc([N+](=O)[O-])c3s2)CC1	resazurin / absorbance	H37Rv			MBC	0.5 µg/mL
Cc1ccc(CS(=O)(=O)c2ncn[nH]2)cc1		My 331/88			MIC	>500 µM
Cc1cccc(C)c1N1C(=O)C(=O)C(c2nc3ccccc3s2)/C(=N/NC(=O)c2ccccc2O)C1=O	BACTEC	H37Rv			MIC bound	>12.5 µg/mL
COc1ccc(NN2C(N)=C(C#N)C(c3cc4cc(Cl)ccc4nc3Cl)C3=C2CC(C)(C)CC3=O)cc1	agar	H37Rv			MIC	22 µg/mL
C[C@@H]1[C@H]2C[C@@H](C[C@H]1NCCNCC(c1ccccc1)c1ccccc1)C2(C)C		H37Rv			MIC	1 µM
Cc1c(C(N)=O)[n+](=O)c2ccccc2n1[O-]		H37Rv			MIC	1 µg/mL
CC(=O)N(C(C)=O)N1C(=O)[C@@H]2C3C=CC([C@H]4C[C@@H]34)[C@@H]2C1=O	resazurin	H37Rv			MIC bound	>6.25 µg/mL
CCCCCCCCCNC1CC(=O)N(CCCCCCCCC)C1=O		H37Rv			MIC	≤20 µg/mL
Clc1ccc(/C(Cn2ccnc2)=N/OCc2cccc3ccccc23)cc1		CIP103471			MIC	8 µg/mL
COc1ccc(C2Oc3ccc(Br)cc3C(=O)C2O)cc1				12.5 µg/mL	inhibition	24%
Clc1ccc(/C(Cn2ccnc2)=N\OC/C=C/c2ccccc2)c(Cl)c1		CIP103471			MIC	8 µg/mL
CN(C)c1ccc(/C=C/C(=O)c2ccccn2)cc1				12.5 µg/mL	inhibition	16%
CCOCCCNCCNC(CC)CO		H37Rv			MIC	150 µM
Cc1coc2c1C(O)C1(C)C(C)CCC(O)C1(O)C2	BACTEC	H37Rv		12.5 µg/mL	inhibition	-8%
C[C@@H]1[C@H]2C[C@@H](C[C@H]1NCCNC1CCCCCCC1)C2(C)C		H37Rv			MIC	1 µM
CNC(=O)CNC(=O)[C@@H](NC(=O)CNC(=O)[C@@H]1CCCN1C(=O)[C@H](C)NC(=O)[C@@H](NC(=O)OC(C)(C)C)C(C)C)C(C)C	resazurin	H37Rv		6.25 µg/mL	inhibition	-7%
Nc1sc(-c2ccccc2)cc1C(=O)O	resazurin	H37Rv			EC50	129 µM
Cn1cnnc1SCc1cc([N+](=O)[O-])cc([N+](=O)[O-])c1		My 331/88			MIC	>1000 µM
CCOC(=O)c1c(NC(=O)c2c(F)c(F)c(F)c(F)c2F)sc2c1CCN(CC)C2	resazurin	H37Rv			MIC	0.69 µM
Clc1ccc(/C(Cn2ccnc2)=N\OCc2ccccc2)c(Cl)c1		CIP103471			MIC	8 µg/mL
Nc1nccnc1C(=O)O	BACTEC	H37Rv			MIC bound	>12.5 µg/mL
CCCCCCCCCN1C(=O)CC(SCCN)C1=O		Clinical isolate (isoniazid-resistant)			MIC	≤20 µg/mL
CCCCCCCCCCCCCCCC1=NN(c2ccccc2)C(=O)C1NC(=O)O	BACTEC	H37Rv			MIC bound	>12.8 µg/mL
COc1ccc(C2CC(=O)c3ccccc3O2)cc1		H37Rv		12.5 µg/mL	inhibition	29%

Repeating the final 5 entries:

smiles | method | strain or isolate | changes | tested at | read-out | value
Clc1ccc(/C(Cn2ccnc2)=N\OCc2ccccc2)c(Cl)c1 |  | CIP103471 |  |  | MIC | 8 µg/mL
Nc1nccnc1C(=O)O | BACTEC | H37Rv |  |  | MIC bound | >12.5 µg/mL
CCCCCCCCCN1C(=O)CC(SCCN)C1=O |  | Clinical isolate (isoniazid-resistant) |  |  | MIC | ≤20 µg/mL
CCCCCCCCCCCCCCCC1=NN(c2ccccc2)C(=O)C1NC(=O)O | BACTEC | H37Rv |  |  | MIC bound | >12.8 µg/mL
COc1ccc(C2CC(=O)c3ccccc3O2)cc1 |  | H37Rv |  | 12.5 µg/mL | inhibition | 29%